This is an account of results in US20110263540A1, “SMALL-MOLECULE INHIBITORS OF PROTEIN SYNTHESIS INACTIVATING TOXINS” (published 2011).

For the test, the target named is ricin A chain (RTA) (Ricinus communis, UniProt P02879). Kind of test: Yeast cell-free in vitro translation assay with luciferase reporter (inhibition of RTA). The following applies: read-out: IC50 for inhibiting RTA (estimated).

With `CN(C)c1ccc(/C=N/Nc2cccc(C(=O)O)c2)cc1`, the IC50 (usually the concentration at which inhibition is half-maximal) was 10 nM.
In the case of `COC(=O)C1=C(C)N/C(=C/c2ccc(C(=O)O)cc2)C1=O`, the IC50 was 1 nM.
In the case of `O=C(O)CCCCCN1C(=O)c2ccc(CC(=O)O)cc2C1=O`, the IC50 is 100 nM.
